Assay results as given in patent US20180099015A1 (ADCURE BIOTECHNOLOGIES, published 2018).

Sequences of proteins named here, by UniProt entry; tags and fusion partners are left off. Residues count along the entry.
UniProt P78310, 20-237 limits assumed: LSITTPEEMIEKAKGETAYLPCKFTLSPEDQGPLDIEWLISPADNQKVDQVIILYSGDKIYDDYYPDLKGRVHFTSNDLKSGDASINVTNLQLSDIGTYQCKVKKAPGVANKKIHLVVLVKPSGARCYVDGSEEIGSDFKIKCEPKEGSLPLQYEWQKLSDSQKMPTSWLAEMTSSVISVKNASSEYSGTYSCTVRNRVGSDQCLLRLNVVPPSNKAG

Molecular target: sCAR (UniProt P78310)
Assay: not stated; row marked with an asterisk that has no footnote

Row | Substance | Kd [µM]
1 | Ad41L partner of the row Ad41L-sCAR* | 0.0073
2 | Ad9 partner of the row Ad9-sCAR* | 6.4
